According to the supplement of paper PMC9931576:
Human monoclonal antibodies against the spike receptor-binding domain (heavy:light variable regions). IC50 against pseudoviruses bearing the spike of naturally observed variants; lower = stronger; >10 µg/ml means not reached at the top dose. No active / inactive call. The stated detection limit is 0.0005 µg/ml; values near or below 0.001 µg/ml lie at the floor of the assay.

B1: BD58-0459 (protein)
chain 1: QVQLQESGPGLVKPSQTLSLTCTVSGGSISSVDYYWSWIRQLPGKGLEWIGYIYYTGSTYYNPSLKSRVTISVDTSKNQFSLKLSSVTAADTAVYYCAREVTYYDSWESPPDPWFDPWGQGTLVTVSS
chain 2: QSVLTQPPSVSGAPGQRVTISCTGNSSNIGAGYDVHWYQQLPGTAPKLLIYGNNNRPSGVPDRFSGSKSGTSASLAITGLQAEDEADYYCQSYDSSLKVFGGGTKLTVL
B2: BD58-0449 (protein)
chain 1: QVTLRESGPALVKPTQTLTLTCTFSGFSLSTSGMCVSWIRQPPGKALEWLALIAWDDDKYYNTSLKTRLTISKDTSKNQVVLTMTNMDPVDTATYYCARSDSSRHYYGLDVWGQGTTVTVSS
chain 2: SYELTQPPSVSVSPGQTARITCSADALPNQYAYWYQQKPGQAPVLVIYKDSERPSGIPERFSGSSSGTTVTLTISGVQAEDEADYYCQSTDISPVVFGGGTKLTVL
B3: BD56-280 (protein)
chain 1: QVTLRESGPALVKPTQTLTLTCTFSGFSLTTTGMCVSWIRQPPGKALEWLALIDWDDDKYYSTSLKTRLTISKDTSKNQVVLTMTNMDPVDTATYYCARTRGEGAESGFYGMDVWGQGTTVTVSS
chain 2: SYELTQPPSVSVSPGQTARITCSGDTLPNQYAYWYQQKSGQAPVLLIYKDSERPSGIPERFSGSSSGTTVTLTISGVQAEDEADYYCQSADSSGTYQVVFGGGTKLTVL
B4: BD58-0461 (protein)
chain 1: QVQLVQSGAEVKKPGSSVKVSCKASGGTFSSYAISWVRQAPGQGLEWMGRIIPILGIGNYAQKFQARVTITADISTNTAYMELSSLRSEDTAVYYCARKEELSDYWGQGTLVTVSS
chain 2: SYELTQPPSVSVSPGQTASITCSGDKLGDKYAFWYQQKPGQSPVLVIYQDSERPSGIPERFSGSNSGNTATLTISGTQPMDEADYYCQAWDSSTEVFGGGTKLTVL
B5: BD58-0431 (protein)
chain 1: EVQLVESGGGLVQPGGSLRLSCAASGFTFRSYWMSWVRQAPGKGLEWVANVKQDGSEKYYVDSVKGRFTISRDNAKNSLYLQMNSLRAEDTAVYYCARVPPPAADAFDIWGQGTMVTVSS
chain 2: SYVLTQPPSVSVAPGKTARITCGGNNIGSKSVHWYQQKPGQAPVLVIYYDSDRPSGIPERFSGSNSGNTATLTISRVEAGDEADYYCQVWDGGSDHVVFGGGTKLTVL
B6: BD58-0466 (protein)
chain 1: QVQLQESGPGLVKPSETLSLTCNVSGGSIISYYWSWIRQPPGKGLEWIGYIYYNGRTHYNPSLKSRVTISVDTSKNHFSLKLSSVTAADTAVYYCARDWGPDYGDAGGMDVWGQGTTVTVSS
chain 2: SYVLTQPPSVSVAPGKTARITCGGNNIGGKSVHWYQQKPGQAPVLVIYYDSDRPSGIPERFSGSNSGNTATLTISRVEAGDEADYYCQVWDGSSDHVVFGGGTKLTVL
B7: BD58-0472 (protein)
chain 1: EVQLVESGGGLVQPGRSLRLSCAASRFSFEDYAMHWVRQAPGKGLEWVSGITWNSDTIAYADSVKGRFTISRDNAKNSLYLQMNSLRPEDTALYYCAKENSSLKNWGQGTLVTVSS
chain 2: QPVLTQPPSASASLGASVTLTCTLSSGYSNYKVDWYQQRPGKGPRFVMRVGTGGIVGSKGDGIPDRFSVLGSGLNRYLTIKNIQEEDESEYHCGADHGSGSNFVWVFGGGTKLTVL
B8: BD58-0462 (protein)
chain 1: EVQLVESGGGLVQPGGSLRLSCAASGFTVSSNYMNWVRQAPGKGLEWVSIIYSGGSTNYADSLKGRFTISRDNSKNTLYLQMNSLRAEDTAVYYCARENQWFGEADYGMDVWGQGTTVTVSS
chain 2: QSVLTQPPSVSGAPGQRVTISCTGSSSNIGADYDVHWYQHLPGTAPKLLIYGNNNRPSGVPDRFSGSKSGASASLAITGLQAEDEADYYCQSYDNSLSGSKVFGGGTKLTVL
B9: BD58-0474 (protein)
chain 1: QVQLVQSGAEVKKPGASVKVSCKASGYTFTSYYIHWVRQAPGQGLEWMGIINPSGGYTTYAQKFQGRVTMTRDTSTSTVYMELSSLRSEDTAVYYCAREYYDLLTGYYHWFDPWGQGTLVTVSS
chain 2: QSVLTQPPSVSGAPGQRVTISCTGRSSNIGADYDVHWYQQLPGTAPKLLIYANSNRPSGVPDRFSGSKSGASASLAITGLQAEDEADYYCQSYDSSLSGSYVFGTGTKVTVL
B10: BD58-0420 (protein)
chain 1: QVQLVESGGGVVQPGRSLRLSCAASGFTFSSYGMHWVRQAPGKGLEWVAVISYDGSNKYYVDSVKGRFTISRDNSKNTLYLQMNSLRAEDTAVYYCAKDISFYYGMDVWGQGTTVTVSS
chain 2: NFMLTQPHSVSESPGKTVTISCTGSSGSIASNYVQWYQQRPGSAPTTVIYEDNQRPSGVPDRFSGSIDSSSNSASLTISGLKTEDEADYYCQSYAGSNVVFGGGTKLTVL

Target: SARS-CoV-2 Omicron BA.1 spike pseudovirus
Assay: pseudovirus neutralization IC50; higher = weaker neutralization
Protocol: (§1)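 Single-round VSV luciferase pseudovirus mixed with antibody dilutions for 1 h and put on Huh-7 cells for about a day; IC50 from the dose curve.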

Row | Binder | pseudovirus neutralization IC50 [µg/mL]
1 | B1 | 0.00434
2 | B2 | 0.221
3 | B3 | 0.329
4 | B4 | 0.0259
5 | B5 | > 10
6 | B6 | > 10
7 | B7 | 0.0289
8 | B8 | > 10
9 | B9 | 0.122
10 | B10 | > 10

Target: SARS-CoV-2 Omicron BA.2 spike pseudovirus
Assay: as above
Protocol: as §1

Row | Binder | pseudovirus neutralization IC50 [µg/mL]
11 | B1 | 0.000581
12 | B2 | 0.0394
13 | B3 | 0.99
14 | B4 | 0.0133
15 | B5 | 3.61
16 | B6 | 0.0121
17 | B7 | 0.0387
18 | B8 | 0.0757
19 | B9 | 0.124
20 | B10 | 4.76

Target: SARS-CoV-2 Omicron BA.2.75 spike pseudovirus
Assay: as above
Protocol: as §1

Row | Binder | pseudovirus neutralization IC50 [µg/mL]
21 | B1 | 0.0023
22 | B2 | 2.75
23 | B3 | > 10
24 | B4 | 0.0287
25 | B5 | 3.7
26 | B6 | > 10
27 | B7 | 0.494
28 | B8 | > 10
29 | B9 | > 10
30 | B10 | > 10

Target: SARS-CoV-2 Omicron BA.2.75.2 spike pseudovirus
Assay: as above
Protocol: as §1

Row | Binder | pseudovirus neutralization IC50 [µg/mL]
31 | B1 | 0.00749
32 | B2 | > 10
33 | B3 | > 10
34 | B4 | > 10
35 | B5 | 3.33
36 | B6 | > 10
37 | B7 | > 10
38 | B8 | > 10
39 | B9 | > 10
40 | B10 | > 10

Target: SARS-CoV-2 Omicron BA.5 spike pseudovirus
Assay: as above
Protocol: as §1

Row | Binder | pseudovirus neutralization IC50 [µg/mL]
41 | B1 | 0.000443
42 | B2 | 0.00834
43 | B3 | > 10
44 | B4 | > 10
45 | B5 | 4.9
46 | B6 | > 10
47 | B7 | > 10
48 | B8 | > 10
49 | B9 | > 10
50 | B10 | > 10

Target: SARS-CoV-2 Omicron BM.1.1.1 spike pseudovirus
Assay: as above
Protocol: as §1

Row | Binder | pseudovirus neutralization IC50 [µg/mL]
51 | B1 | 0.000661
52 | B2 | > 10
53 | B3 | > 10
54 | B4 | > 10
55 | B5 | > 10
56 | B6 | > 10
57 | B7 | > 10
58 | B8 | > 10
59 | B9 | > 10
60 | B10 | > 10

Target: SARS-CoV-2 Omicron BQ.1.1 spike pseudovirus
Assay: as above
Protocol: as §1

Row | Binder | pseudovirus neutralization IC50 [µg/mL]
61 | B1 | 0.00231
62 | B2 | 0.0837
63 | B3 | > 10
64 | B4 | > 10
65 | B5 | > 10
66 | B6 | > 10
67 | B7 | > 10
68 | B8 | > 10
69 | B9 | > 10
70 | B10 | > 10

Target: SARS-CoV-2 Omicron BR.2 spike pseudovirus
Assay: as above
Protocol: as §1

Row | Binder | pseudovirus neutralization IC50 [µg/mL]
71 | B1 | 0.000553
72 | B2 | > 10
73 | B3 | > 10
74 | B4 | > 10
75 | B5 | > 10
76 | B6 | > 10
77 | B7 | > 10
78 | B8 | > 10
79 | B9 | > 10
80 | B10 | > 10

Target: SARS-CoV-2 Omicron CA.1 spike pseudovirus
Assay: as above
Protocol: as §1

Row | Binder | pseudovirus neutralization IC50 [µg/mL]
81 | B1 | 0.000783
82 | B2 | > 10
83 | B3 | > 10
84 | B4 | > 10
85 | B5 | > 10
86 | B6 | > 10
87 | B7 | > 10
88 | B8 | > 10
89 | B9 | > 10
90 | B10 | > 10

Target: SARS-CoV-2 Omicron XBB spike pseudovirus
Assay: as above
Protocol: as §1

Row | Binder | pseudovirus neutralization IC50 [µg/mL]
91 | B1 | 0.00342
92 | B2 | > 10
93 | B3 | > 10
94 | B4 | > 10
95 | B5 | > 10
96 | B6 | > 10
97 | B7 | > 10
98 | B8 | > 10
99 | B9 | > 10
100 | B10 | > 10

Target: SARS-CoV-2 early D614G spike pseudovirus
Assay: as above
Protocol: as §1

Row | Binder | pseudovirus neutralization IC50 [µg/mL]
101 | B1 | > 10
102 | B2 | > 10
103 | B3 | > 10
104 | B4 | > 10
105 | B5 | > 10
106 | B6 | > 10
107 | B7 | > 10
108 | B8 | > 10
109 | B9 | > 10
110 | B10 | > 10
